PubChem BioAssay AID504761 – Drosophila RNAi Screening Center, 2011

Screen: 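Genome-wide fly cell screen for genes dengue virus requires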 (primary screen)
System: D.Mel-2 cells from Drosophila
Reagents: long dsRNA against Drosophila genes
Conditions: infection with dengue virus type 2; dose and infection time not stated
Detection: 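Cells stained for dengue envelope protein and imaged; percent of infected cells per well on duplicate plates, ranked by infection, with stained nuclei counted for cell number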
Reading the numbers: infection score: higher = more virus-infected cells; cell count: higher = more cells in the well
Active means: 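Very low infection ranking in both replicate wells (chance probability at most 0.065), then a retest showing infection dropped 1.5-fold or more at p below 0.05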
Calls: active = confirmed: knock-down lowers infection; inactive = not picked or not confirmed
In all, the deposit lists about 22,000 reagents; below is an unselected part of those with a known target gene and a result. Of all reagents, 116 (0.52%) are marked active. 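Calls depend on retest data that are not deposited; infection was ranked per plate without normalising between plates; the unit of the infection score is not given.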 Raw values vary from plate to plate and are shown uncorrected. Unmarked entries are inactive. A plus sign joins genes that one reagent is predicted to hit. Not given: the amount of reagent, the time to read-out.

target gene | amplicon | infection score, replicate 1 | infection score, replicate 2 | cell count, replicate 1 | cell count, replicate 2
wdn (GeneID 43398) | DRSC17095 | 1.9 | 1.76 | 6276 | 7197
wdn (GeneID 43398) | DRSC29088 | 25.1 | 13.5 | 3555 | 5900
CG42570 (GeneID 8674011) | DRSC09391 | 4 | 2.48 | 6407 | 6381
gdl-ORF39 + gdl | DRSC11350 | 2.15 | 5.29 | 6081 | 6546
SdhD (GeneID 42808) | DRSC14215 | 2.9 | 6.64 | 5756 | 5801
Ugt301D1 (GeneID 35105) | DRSC02021 | 4.67 | 6.37 | 5721 | 5873
CG7728 (GeneID 39904) | DRSC10907 | 10.4 | 10.6 | 5750 | 4764
CG7728 (GeneID 39904) | DRSC28948 | 1.01 | 8.08 | 396 | 1176
CG8248 (GeneID 35888) | DRSC07124 | 3.09 | 6.24 | 6337 | 6440
CG11151 (GeneID 32335) | DRSC19387 | 1.15 | 4.77 | 6718 | 6689
CG9150 (GeneID 33856) | DRSC03148 | 1.78 | 1.81 | 6296 | 6343
CG9150 (GeneID 33856) | DRSC25676 | 4.41 | 8.88 | 6718 | 6252
Ccs (GeneID 46035) | DRSC06692 | 11 | 16.4 | 6004 | 6129
Gen (GeneID 38594) | DRSC09679 | 5.57 | 3.58 | 6514 | 6639
Atg18b (GeneID 35396) | DRSC03108 | 5.55 | 10.2 | 6382 | 6159
Atg18b (GeneID 35396) | DRSC28594 | 14.1 | 11.8 | 5263 | 3134
CG15771 (GeneID 31500) | DRSC18077 | 1.03 | 0.25 | 6316 | 7097
CG5757 (GeneID 37062) | DRSC06951 | 15.5 | 17 | 5519 | 5195
CG13398 (GeneID 34169) | DRSC02268 | 2.87 | 5.26 | 6387 | 1540
jub (GeneID 32351) | DRSC19367 | 3.39 | 4.47 | 5520 | 5411
jub (GeneID 32351) | DRSC26225 | 5.82 | 7.01 | 3335 | 5864
CG1607 (GeneID 43707) | DRSC15130 | 1.5 | 2.52 | 6070 | 5953
CG1607 (GeneID 43707) | DRSC27010 | 6.16 | 3.99 | 2175 | 4090

Already shown: 4 of the entries above.
target gene | amplicon | infection score, replicate 1 | infection score, replicate 2 | cell count, replicate 1 | cell count, replicate 2
CG7728 (GeneID 39904) | DRSC10907 | 10.4 | 10.6 | 5750 | 4764
CG7728 (GeneID 39904) | DRSC28948 | 1.01 | 8.08 | 396 | 1176
CG8248 (GeneID 35888) | DRSC07124 | 3.09 | 6.24 | 6337 | 6440
CG11151 (GeneID 32335) | DRSC19387 | 1.15 | 4.77 | 6718 | 6689
